This note sets out measurements from paper PMC3359404.

What all share (test): purified protein
Conditions in all cases: 10 mM pyruvate, 0.3 mM NADPH, 150 mM PIPES pH 6.6, room temperature

The test system of series [1] is N=C(N)NCCC[C@H](N)C(=O)O.
The test system of series [2] is NCC(=O)O.
Series [3] relates to NCCCC[C@H](N)C(=O)O.

The Km is the substrate concentration at which the rate is half of its maximum. What is called kcat is the number of substrate molecules converted per active site and unit of time at saturation. The term kcat/Km denotes the second-order rate constant that governs catalysis at low substrate concentration. For “Ocs (His6-Ocs), octopine synthase (Agrobacterium tumefaciens (strain 15955))”, in series [1], the Km turned out to be 3500 ± 300 µM, the kcat is 12 s⁻¹ and the kcat/Km stood at 3500 M⁻¹ s⁻¹. Further, the catalytic constant (kcat) in series [2] turned out to be 21.7 s⁻¹. For the same substance, in series [3], the Km turned out to be 740 ± 80 µM, the kcat was 2.17 s⁻¹ and the catalytic efficiency (kcat/Km) was 2970 M⁻¹ s⁻¹.
